Measured values reported in paper PMC5434164, “Curcumin Promotes the Clearance of Listeria monocytogenes both In Vitro and In Vivo by Reducing Listeriolysin O Oligomers” (Frontiers in Immunology, 2017).

Target: the molecule itself
Assay: oligomerization assay (Western blot of high molecular-weight complexes); LLO or its mutants pre-incubated with or without curcumin at 37°C, oligomerization induced in vitro; protocol as in ref. 11; oligomers detected by Western blot with specific antibodies

B1: listeriolysin O (LLO), wild type (natural protein)
chain: not shown
notes: ATCC19115 and EGD were used in the study; Cloned into pET-21a between NdeI and XhoI; also called WT-LLO
binding result: binds
